Values of other authors as cited in PMC5954841.

Experiments:
[1] = molecular target: Caf1 pilus subunit (Yersinia pestis) (UniProt P26948)
[2] = molecular target: Caf1A usher (Yersinia pestis) (UniProt P26949)

Substance	Kd [1] [nM]	Kd [2] [nM]
Caf1M chaperone (from UniProt P26926)	62.5	–
Caf1M-Caf1 chaperone-subunit complex (from UniProt P26926)	–	2420
